What follows are molecules tested against HCV NS3 protease (Hepatitis C virus genotype 1a, UniProt P27958) (assay: Enzyme inhibition of HCV NS3 serine protease (cleavage of peptide substrate / EDVV AbuC-p-nitroanilide, with or without NS4A)). Conditions: Enzyme inhibition data; Ki from rate vs [inhibitor] plots, Morrison tight binding competitive inhibition fit; 30 C, pH 7.8.
Format: biochemical
Method: Cleavage reactions were quenched by the addition of an equal volume of a mixture of 10% TFA:acetonitrile (1:1) and activity was assessed on a reversed phase HPLC column (Rainin C18 Microsorb-MV, […], 4.6×250 mm; 0-50% acetonitrile, 0.1% TFA@ 3.33% min) using a Hewlett Packard 1050 instrument with auto-injection and diode array detection at 210 nm and 280 nm (where appropriate). Peptide elution fragments were collected and identified by mass spectrometry and N-terminal sequence analysis. Fragment identity and concentration was further verified by authentic, synthesized products. Initial rates of cleavage were determined at <20% substrate conversion and catalytic parameters were determined assuming Michaelis-Menten kinetics using the MultiFit program (Day Computing, Cambridge, Mass.).
Spectrophotometric assays were run in a 96-well microtiter plate at 30 C, using a SpectraMax 250 reader (Molecular Devices, Sunnyvale, Calif.) with kinetic capability. Cleavage of EDVV AbuC-p-nitroanilide (5A-pNA) substrate was performed with or without […] in the same buffer used for HPLC assays at 30 C, and pNA release was monitored at 405 nm. The extinction-coefficient of p-nitroaniline is independent of pH at values of 5.5. and above [Tuppy, H., et al., Hoppe-Seyler's Z. Physiol. Chem., 329, pp. 278-288 (1962)]; Raybuck and Luong, unpublished observations).
Kinetic constants for the rapid equilibrium ordered bisubstrate reaction were determined from rate vs [4A], [EDVV AbuC-pNA] data by non-linear least squares fitting to equation 1 [Morrison, J. F. Biochim. Biophys. Acta, 185, pp. 269-286 (1969)] as described in the text. Kii and Kis values for peptidyl inhibitors were determined from rate vs [inhibitor], [substrate] data and fitting to the equation for mixed inhibition: rate=Vmax[S]/{Km(1+[I]/Kis)+[S](1+[I]/Kii)} The commercial program KinetAsyst (StateCollege, Pa.) was used for both procedures. Ki values were calculated from rate vs [inhibitor] plots by a nonlinear least squares fit of the data to the equation of Morrison for tight binding competitive inhibition [Morrison, J. F. Biochim. Biophys. Acta, 185, pp. 269-286 (1969)]. The KineTic program (BioKin Ltd) was used for this procedure.
Ki values are expressed in μM. Category “A” indicates <1 μM inhibition; category “B” indicates 1-100 μM inhibition; category “C” indicates >100 μM.

Protein sequences, listed by entry. Tags and fused reporters are not part of them. Residues count along the entry.
UniProt P27958, 1027-1208 limits assumed: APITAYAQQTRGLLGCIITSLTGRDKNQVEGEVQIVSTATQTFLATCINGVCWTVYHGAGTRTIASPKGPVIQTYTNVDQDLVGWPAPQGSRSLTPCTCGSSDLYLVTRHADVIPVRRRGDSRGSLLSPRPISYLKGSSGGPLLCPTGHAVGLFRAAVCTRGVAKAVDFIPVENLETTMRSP

| SMILES | Ki |
| --- | --- |
| CCC(C=O)NC(=O)C1CC(OCc2ccccc2)CN1C(=O)C(NC(=O)C(Cc1ccc(O)cc1)NC(=O)c1cnccn1)C(C)C (centres unmarked) | 1 to 100 µM |
| CC[C@@H](C=O)NC(=O)[C@@H]1C[C@@H](OCc2ccccc2)CN1C(=O)[C@@H](NC(=O)C(F)c1ccccc1)C(C)C (some centres unmarked) | > 100 µM |
| CC[C@@H](C=O)NC(=O)[C@@H]1C[C@@H](OCc2ccccc2)CN1C(=O)[C@@H](NC(=O)C1NCCc2ccccc21)C(C)C (some centres unmarked) | > 100 µM |
| CC[C@@H](C=O)NC(=O)[C@@H]1C[C@@H](OCc2ccccc2)CN1C(=O)C(NC(=O)/C=C\c1ccccc1)C(C)C (some centres unmarked) | 1 to 100 µM |
| CC[C@@H](C=O)NC(=O)[C@@H]1C[C@@H](OCc2ccccc2)CN1C(=O)[C@@H](NC(=O)C(C#N)=C1CCCCC1)C(C)C | 1 to 100 µM |
| CC[C@@H](C=O)NC(=O)[C@@H]1C[C@@H](OCc2ccccc2)CN1C(=O)[C@@H](NC(=O)c1cccc(OC)c1OC)C(C)C | > 100 µM |
| CCC(C=O)NC(=O)C(CC(C)C)NC(=O)C(NC(=O)C(NC(=O)CCN1CCOCC1)C(C)C)C(C)C (centres unmarked) | 1 to 100 µM |
| CCC(Oc1ccccc1)C(=O)N[C@H](C(=O)N1C[C@H](OCc2ccccc2)C[C@H]1C(=O)N[C@H](C=O)CC)C(C)C (some centres unmarked) | > 100 µM |
| CC[C@@H](C=O)NC(=O)[C@@H]1C[C@@H](NC(=O)C2CCCCC2)CN1C(=O)C(NC(=O)C(NC(=O)c1cnccn1)C(C)C)C(C)C (some centres unmarked) | > 100 µM |
| CC[C@@H](C=O)NC(=O)[C@@H]1C[C@@H](OC(=O)Nc2ccccc2)CN1C(=O)[C@@H](NC(=O)[C@@H](NC(=O)c1cnccn1)C(C)C)C(C)C | 1 to 100 µM |
| CC[C@H](NC(=O)C(CC(C)C)NC(=O)C(NC(=O)C(NC(=O)c1cnccn1)C(C)C)C(C)C)C(=O)C(=O)O (some centres unmarked) | 1 to 100 µM |

Reference: US7388017B2, “Inhibitors of serine proteases, particularly hepatitis C virus NS3 protease” (Vertex Pharmaceuticals Incorporated, priority 1996, dated 2008)
